{"source": "patent US4923895A", "about": "“Method of treatment of human immunodeficiency virus” (dated 1990)", "key": {"[1]": {"conditions": "historic use against syphilis; phlebitis, transitory nausea, vomiting, lacrimation, pruritis, mild dermatitis; cited from earlier work"}, "[2]": {"biological_target": "HIV reverse transcriptase (HIV-1 M:B_HXB2R, UniProt P04585)", "test": "In vitro HIV reverse transcriptase activity", "conditions": "0.006 to 60 microgram per ml"}, "[3]": {"tested_on": "persistently infected H9 cells", "test": "Cytotoxicity in persistently infected H9 cells"}, "[4]": {"tested_on": "HIV DNA synthesis", "test": "HIV DNA synthesis in seropositive patient's lymphocytes cocultured with PHA-stimulated normal lymphocytes", "conditions": "0.6 microgram per ml and 6.0 microgram per ml"}, "[5]": {"tested_on": "HIV", "test": "In vitro HIV infection of PHA-stimulated normal peripheral blood lymphocytes or H9 cells, p24 antigen capture test"}, "[6]": {"tested_on": "PHA stimulated peripheral blood lymphocytes and H9 cells", "test": "Cytotoxic effect on PHA stimulated peripheral blood lymphocytes and H9 cells ((3H) thymidine uptake, viable cell numbers)"}, "[7]": {"tested_on": "HIV", "test": "HIV production from lymphocytes of HIV seropositive patients cocultured with PHA stimulated PBL, p24 antigen capture assay"}, "[8]": {"tested_on": "HIV", "test": "HIV production in H9 cells persistently infected with HIV (antigen capture, reverse transcriptase activity, in vitro infectivity)", "conditions": "6.0 and 0.6 microgram per ml"}, "[9]": {"conditions": "12 days incubation, PBL or H9 cells"}, "[10]": {"conditions": "PHA stimulated peripheral blood lymphocytes and H9 cells"}, "[11]": {"conditions": "within 4-7 days following addition of drug"}}, "data": [{"smiles": "Nc1cc([As]=O)ccc1O", "note": "(stereo not shown)", "values": [{"measurement": "side effects in patients", "setting": "[1]", "result": "generally tolerable side effects"}, {"measurement": "direct inhibitory effect on in vitro HIV reverse transcriptase activity", "setting": "[2]", "result": "did not have direct inhibitory effects"}, {"measurement": "cytotoxic effect", "setting": "[3]; 60 milligrams per ml (so in the source)", "result": "the cells were destroyed"}, {"measurement": "cytotoxic effect", "setting": "[3]; persistently infected H9 cells, 1.2 microgram per ml", "result": "no cytotoxic effect"}, {"measurement": "cytotoxic effect (cell growth)", "setting": "[3]; persistently infected H9 cells, 6 microgram per ml", "result": "only mild inhibition of cell growth"}, {"measurement": "effect on the synthesis of HIV DNA", "setting": "[4]", "result": "significant inhibitory effect"}, {"measurement": "inhibition of in vitro HIV infection (p24 in culture supernatant)", "setting": "[5]; 0.004 to 6 microgram per ml, 12 days", "result": "inhibited in vitro HIV infection in a dose dependent manner"}, {"measurement": "concentration at which inhibition of HIV infection was detectable (p24)", "setting": "[5]; [9]", "result": "0.035-0.07 microgram per ml"}, {"measurement": "concentration giving complete inhibition of HIV production (p24)", "setting": "[5]; [9]", "result": "≥ 0.15", "unit": "microgram per ml"}, {"measurement": "cytotoxic effect", "setting": "[6]; 60 microgram per ml", "result": "highly toxic for cells"}, {"measurement": "concentration with low levels of cytotoxic effect", "setting": "[6]; [10]", "result": "1.2-6 microgram per ml"}, {"measurement": "concentration with no cytopathic effect ((3H) thymidine uptake or viable cell numbers)", "setting": "[6]; [10]", "result": "≤ 0.6", "unit": "microgram per ml"}, {"measurement": "concentration with no toxicity", "setting": "[6]; peripheral blood lymphocytes and H9 cells, summary statement", "result": "≤ 0.6", "unit": "microgram per ml"}, {"measurement": "toxicity at the range of concentrations at which HIV is inhibited", "setting": "[6]; range of concentrations at which HIV is inhibited", "result": "not toxic"}, {"measurement": "inhibition of HIV production from lymphocytes of both patients", "setting": "[7]; coculture with PHA stimulated PBL", "result": "in a dose dependent manner"}, {"measurement": "concentration that completely blocked virus production (HIV p24 antigen capture assay)", "setting": "[7]; lymphocytes from an AIDS patient and a seropositive asymptomatic individual cocultured with PHA stimulated PBL", "result": "≥ 0.6", "unit": "microgram per ml"}, {"measurement": "amount of HIV in the culture fluid (HIV p24) compared to untreated control", "setting": "[8]; HIV-infected H9 cells", "result": "greatly reduced"}, {"measurement": "infectious HIV in culture fluids (in vitro infectivity assay in PHA-stimulated PBL)", "setting": "[8]; [11]", "result": "no significant levels"}, {"measurement": "reverse transcriptase activity in culture fluids", "setting": "[8]; [11]", "result": "no significant levels"}]}]}
